Test results as given in patent US7279172B2, “Treatment of autoimmune conditions with copolymer 1 and related copolymers” (priority 1998, dated 2007).

The substances below were run on HLA-DR1, HLA-DR2 and HLA-DR4. Settings: pH 5.
Format: binding, human
With “poly[L-Tyr^0.102, L-Ala^0.542, L-Lys^0.353] [SD-1691-TAL]” the “inhibition of the polypeptide's binding to HLA-DR by superantigens SEA, SEB, TSST-1 (in words)” value (from here on “inhibition of the polypeptide's binding”) was “only inhibited by the superantigens at high molar ratios”.
“poly[L-Tyr^0.136, L-Glu^0.21, L-Ala^0.648] [SD-1690-TGA]” was tested, and the “inhibition of the polypeptide's binding” value was “inhibited more significantly by the superantigens”.
“poly[L-Glu^0.153, L-Ala^0.479, L-Lys^0.365] [SD-1689-GAL]” was tested, and the “inhibition of the polypeptide's binding” value was “inhibited more significantly by the superantigens”.
